Measured values published in PMC12166091.
Construct, isoform or probe ends are uncertain for at least one entry.

Tested on: GST-SLBP (human)
Test: EMSA
Conditions: recombinant protein, protein details: N-terminal GST, label: 3' biotin

| Sequence | binding result | binding result (strongest among the truncated probes) |
| --- | --- | --- |
| CACAAUCGUUUUUAAACG [-1 PRF RNA truncated mutant II] | binds | – |
| GUGCGGCACAGGCACUAGUACUG [-1 PRF RNA truncated mutant III] | binds | – |
| AUGUCGUAUACAGGGCUUU [-1 PRF RNA truncated mutant I] | – | binds |
